PSTVd stem 3 mutant pool in Nicotiana benthamiana

Data from the supplement of Wu et al. 2024, doi:10.1371/journal.ppat.1012142.

PSTVd intermediate strain, stem 3: wild type GUGGUUCCGGAACCGC, pool pattern GUGGUUCCGNANNCNN; upper and lower strand joined, each 5' to 3', the first 8 letters being the upper strand.

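Three N. benthamiana plants were inoculated with the whole mutant pool. Progeny were sequenced from the inoculated region (day 5), the margin of the inoculated leaf (day 10) and systemic leaves (day 12).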

Values are reads per thousand in the sample; higher means more abundant, 0 means not found.
Each value is the mean of three plants.
"Pool" is the share in the plasmid pool used as inoculum, on the same scale.
The inoculated region was read from the minus strand, the other sites from the plus strand.
Wild type was 17.3 per thousand in the pool and the most common sequence in every sample (inoculated region 330, 345, 235; leaf margin 794, 766, 816; systemic leaves 830, 792, 869).
The authors trace changes outside the varied positions to PCR and sequencing errors or to mutation in the plant; presence does not show that a variant is infectious alone.
Samples held 27,691 to 54,225 reads, so the smallest values rest on one or two reads.

- GUGGUUCCGAAACCAU (pool 0.800) -> inoculated region 0.789; leaf margin 0.475; systemic leaves 0
- GUGGUUCCGGAGUCGG (pool 0.662) -> inoculated region 0.831; leaf margin 0.181; systemic leaves 0
- GUGGUUCCGAAGACAA (pool 0.769) -> inoculated region 0.819; leaf margin 0.467; systemic leaves 0
- GUGGUUCCGAACUCGG (pool 0.908) -> inoculated region 0.790; leaf margin 0; systemic leaves 0
- GUGGUUCCGCAAACGU (pool 0.723) -> inoculated region 0.308; leaf margin 0.0120; systemic leaves 0
- GUGGUUCCACAGUUGG (pool 0.816) -> inoculated region 0.535; leaf margin 0.951; systemic leaves 1.01
- GUGGUUCCGGACUCUC (pool 1.11) -> inoculated region 1.50; leaf margin 0.361; systemic leaves 0
- GUGGUUCCGAAGCCCG (pool 0.739) -> inoculated region 0.710; leaf margin 0.215; systemic leaves 0
- GUGGGUCCGGAUGCGG (pool 0.0154) -> inoculated region 0; leaf margin 0; systemic leaves 0
- GUGGUUCCGUAGGCGU (pool 0.800) -> inoculated region 0.740; leaf margin 0.130; systemic leaves 0
- GUGGUUCCGUAUGCUG (pool 1.43) -> inoculated region 0.552; leaf margin 0.0200; systemic leaves 0.0621
- GUGGUUCCGAACACCU (pool 0.970) -> inoculated region 0.700; leaf margin 0.619; systemic leaves 0
- GUGGUUCCGCAGCCGC (pool 0.970) -> inoculated region 0.329; leaf margin 0.0309; systemic leaves 0
- GUGGUUCCGCAUCCGG (pool 0.708) -> inoculated region 0.333; leaf margin 0.0241; systemic leaves 0.0516
- GUGGUUCCGCAUUCAU (pool 0.646) -> inoculated region 0.794; leaf margin 0.424; systemic leaves 0
- GUGGUUCCGUAGCCCG (pool 0.739) -> inoculated region 0.385; leaf margin 0.0347; systemic leaves 0
- GUGGUUCCGAACACUU (pool 1.03) -> inoculated region 0.757; leaf margin 0.557; systemic leaves 0
- GUGGUUCAGGAACCGC (pool 0.0154) -> inoculated region 0.152; leaf margin 0.844; systemic leaves 0.593
- GUGGUUCCGCAACCGC (pool 0.923) -> inoculated region 0.281; leaf margin 0.0733; systemic leaves 0.0861
- GUGGUUCCGUACCCGU (pool 1.00) -> inoculated region 0.331; leaf margin 0; systemic leaves 0
- GUGUUUCCGAAUACGG (pool 0.0154) -> inoculated region 0; leaf margin 0; systemic leaves 0
- GUGGUUCCGAAUCCAA (pool 0.785) -> inoculated region 0.762; leaf margin 0.108; systemic leaves 0
- GUGGUUCCGAAUACUG (pool 0.954) -> inoculated region 0.536; leaf margin 0.00944; systemic leaves 0
- GUGGUUCCGCAUCCCG (pool 1.00) -> inoculated region 0.263; leaf margin 0.0120; systemic leaves 0
- GUGGUUCCGAAAUCGC (pool 0.846) -> inoculated region 0.749; leaf margin 0; systemic leaves 0
- GUGGUUCCGGAAUCGA (pool 1.29) -> inoculated region 0.673; leaf margin 0.0189; systemic leaves 0.00621
- GUGGUUCCGUACGCAG (pool 1.02) -> inoculated region 0.300; leaf margin 0.00944; systemic leaves 0
- GUGGUUCCGCAGGCUA (pool 1.23) -> inoculated region 0.623; leaf margin 0; systemic leaves 0
- GUGGUUCCGCAGUCAA (pool 0.893) -> inoculated region 0.785; leaf margin 0.451; systemic leaves 0
- GUGGUUCCGCAGCCAC (pool 0.769) -> inoculated region 0.667; leaf margin 0.193; systemic leaves 0
- GUGGUUCCGUAACCAA (pool 1.08) -> inoculated region 0.256; leaf margin 0; systemic leaves 0
- GUGGUUCCGUAUACGU (pool 0.877) -> inoculated region 0.315; leaf margin 0.00944; systemic leaves 0

The last 2 entries again:

sequence,pool,inoculated region,leaf margin,systemic leaves
GUGGUUCCGUAACCAA,1.08,0.256,0,0
GUGGUUCCGUAUACGU,0.877,0.315,0.00944,0